Key:
[1] = Sensory test in basic formulations for personal care and home care; conditions: 0.5% in bar soap, all purpose cleaner, liquid detergent, detergent powder, fabric softener, body lotion, hair shampoo
[2] = Taste impressions in sugar slurry
[3] = Smell description in own experiments

Row | SMILES | sensory impression versus comparison compositions without compound [1] | Taste impression ([2]; dosage 0.01%) | Taste impression ([2]; dosage 0.03%) | Taste impression ([2]; dosage 0.05%) | smell [3]
1 | CC(C)=CCc1ccc(O)cc1 [IIa, 4-(3-Methylbut-2-enyl)phenol] | no negative sensory impression observed | neutral-no taste impression | green, sweet, camphor-like, rock-candy, floral | strong flavor impression, sweet, candy-floss, green, technical, | rosy, green, clove-like, slightly technical
2 | CC(C)=CCc1ccccc1O [IIIa, 2-(3-Methylbut-2-enyl)phenol] | no negative sensory impression observed | neutral-no taste impression | green, sweet, camphor-like, rock-candy, floral | strong flavor impression, sweet, candy-floss, green, technical, | rosy, green, clove-like, slightly technical

From US20130156708A1, “PHENOL DERIVATIVES AS ANTIMICROBIAL AGENTS” (Symrise AG, priority 2011, published 2013)
